Columns and labels:
[1] = system: T. cruzi epimastigotes (CL Brener strain); assay: In vitro activity against epimastigotes of T. cruzi (alamar Blue); type: cell-based, Trypanosoma cruzi; details: selectivity index
[2] = system: T. cruzi trypomastigotes (CL Brener strain); assay: In vitro activity against cell-derived trypomastigotes of T. cruzi (alamar Blue); type: cell-based, Trypanosoma cruzi; details: selectivity index

Row | SMILES | SI a: IC50 VERO/IC50 T. cruzi epimastigotes [1] | SI b: IC50 VERO/IC50 T. cruzi tripomastigotes [2]
1 | O=C(N/N=C/c1c(O)ccc2ccccc12)c1ccncc1 [IN] | ≤1 | ≤1
2 | Oc1cccc2cccnc12 [L0] | 1.1 | 21.5
3 | Oc1c(Cl)cc(Cl)c2cccnc12 [L1, 5,7-dichloro-8-hydroxyquinolne] | 9.3 | 29.5
4 | Oc1c(I)cc(Cl)c2cccnc12 [L2, 5-chloro-7-iodo-8-hydroxyquinoline] | 23.4 | 162
5 | Oc1c(I)cc(I)c2cccnc12 [L3] | 34.8 | 68.6
6 | O=[N+]([O-])c1ccc(O)c2ncccc12 [L4] | 4.8 | 12.3
7 | CC1CS(=O)(=O)CCN1/N=C/c1ccc([N+](=O)[O-])o1 (centres unmarked) [Nifurtimox] | 271 | 49.6

From publication PMC8433833, “Heteroleptic Oxidovanadium(V) Complexes with Activity against Infective and Non-Infective Stages of Trypanosoma cruzi” (Molecules, 2021)
